Results taken from patent publication US10336792B2 (priority 2014, dated 2019).

How the values were obtained:
Format in all cases: cell-based
[1] = test system: Pseudomonas aeruginosa (strain PA01); settings: MHC on hRBC / MIC PAO1
Procedure: (§1) Antimicrobial activity was assayed against Bacillus subtilis (strain BR151), Escherichia coli (strain DH5α) and Pseudomonas aeruginosa (strain PA01). Microdilution broth method was used to determine the minimal inhibitory concentration (MIC). A colony of bacteria was grown in LB-medium overnight at 37° C. The concentration was quantified by measuring absorbance at 600 nm and diluted to OD600=0.1 (1×10^8 CFU/mL). The samples were prepared as stock solutions of 1 mg mL^−1 in H2O and diluted serially by ⅔ in nutrient LB in a 96-well microtiterplate (Cornstar, polypropylene, untreated). The sample solutions (50 μL) were mixed with the diluted bacterial suspension with an OD600 nm of 0.001 (50 μL). […] The plates were incubated at 37° C. until satisfactory growth (18-24 h). For each test, two columns of the plate were kept for sterility control (SC, broth only) and growth control (GC, broth with bacterial inoculums, no antibiotics). 10 μL of a solution of MTT (0.1% in H2O) was added to each well. The minimal inhibitory concentration (MIC) was defined as the lowest concentration of the antimicrobial substance (peptide dendrimer) that inhibited visible growth of the tested bacteria (yellow) with the unaided eye. For microbiological study the linear peptide LysTyrLysLysAlaLeuLysLysLeuAlaLysLeuLeu (SEQ ID No. 1) was used as reference.
All peptides were tested for their activity against P. aeruginosa PAO1 in a broth dilution assay (Wiegand, I. et al., 2008, Nat. Protoc., 3, 163-75; Clinical and Laboratory Standards Institute document M7-A7 7th Edition) to determine the MIC (minimal inhibitory concentration) values. The stock solutions of the peptide dendrimers were diluted serially by ⅔ in nutrient LB in 96-well microtiter plates. Bacteria were grown in nutrient LB overnight at 37° C. After dilution the bacteria were added to the peptides and incubated overnight (18-24 h) at 37° C. […] The position of the amino acids between the branching units seems to be optimal if the hydrophobic amino acid is the first counting from C-terminus and the charged one is on the second position. […]

[2] = test system: Bacillus subtilis (strain BR151); settings: MHC on hRBC / MIC B. subtilis
Procedure: as §1
(§2) The AMPD library was tested for their antimicrobial activity against B. subtilis BR151, a Gram-positive bacterium and E. coli DH5α, another Gram-negative bacterium, to cover a broader spectrum of different bacteria. […] Therefore no explicit SAR can be established, but clearly the hydrophobic amino acids Ala and Tyr seem to have a significant influence in reducing activity.

[3] = test system: Escherichia coli (strain DH5α); settings: MHC on hRBC / MIC E. coli
Procedure: as §1, §2

Row | Substance | TI (therapeutic index = MHC/MIC), P. aeruginosa PAO1 [1] | TI (MHC/MIC), B. subtilis BR151 [2] | TI (MHC/MIC), E. coli DH5α [3]
1 | (DabL)8(KDabW)4(KDabW)2(KDabL) [MSt-204] | 49 | 73 | 73
2 | (KKL)4(KKKL)2(KKKL) [MIS-03] | – | 36 | –
3 | (KL)32(KKL)16(KKLCxKL)8(KKL)4(KKL)2KKL [CCS-15] | – | 0.3 | 1
4 | (KLL)4(KKLL)2(KKLL) [MIS-02] | 5 | 15 | –
5 | (LA)8(KLK)4(KLA)2(KKL) [MSt-120] | 42 | – | –
